Measurements reported in patent US20220089663A1, “PROTEINS AND FLUOROPHORE-CONTAINING COMPOUNDS SELECTIVE FOR NaV1.7” (MEMORIAL SLOAN KETTERING CANCER CENTER, priority 2019, published 2022).

Assay: acute in vivo toxicity after intravenous injection
Design: species or system mouse
Conditions: 7 nmol i.v.
Description: Acute in vivo toxicity. All animal experiments were performed in accordance with protocols approved by the Institutional Animal Care and Use Committee of MSK and followed the National Institute of Health guidelines for animal welfare. Six athymic nude mice 6-8 weeks old were purchased from Envigo RMS, Inc. An intravenous (IV) catheter was placed in tail vein of each mouse and they were anesthetized using Isoflurane (Novaplus, Telangana-India). Anesthesia was maintained using 1.0 to 1.5 L/min of Isoflurane and 2 L/min of oxygen. Three animals were injected with 68 μM, 7 nmol Hsp1a-FL in 100 μL of PBS, and the other three with […], of PBS. Animals were monitored using a rodent surgical monitor (Indus instruments, Houston, Tex.) before, during, and up to 16 minutes after injection. Numeric data points represent averaged values of 5±1 seconds duration. Data was collected before injection, 15 seconds after injection, 5 minutes after injection and 15 minutes after injection. Mouse body core temperature was measured by placing a rectal probe and electronically regulated via a surgical platform. The high-resolution electrocardiogram (EKG) was measured by placing non-invasive electrodes on the 4 paws and electrical contact was assured using a conducting gel (Electrode cream, Indus instruments, Houston, Tex.). Heart rate was automatically calculated from the R-R peaks derived from the EKG signal. Peripheral capillary oxygen saturation (SpO2) was non-invasively measured by placing a clip sensor on the animal's left thigh.
Statistical Analysis. Data were statistically analyzed by generalized estimating equations followed by LSD post hoc test when appropriate using SPSS 23.0. […] Average and standard deviations were calculated for each mouse.
Unless otherwise stated, data points represent mean values and error bars represent the standard deviation of biological replicates (mean±SEM). All p-values were calculated using a Student's unpaired t-test. […] Statistical significance was determined with alpha=0.05. […]

Compound: CC[C@H](C)[C@H](NC(=O)[C@H](CCCCN)NC(=O)[C@@H]1CSSC[C@@H]2NC(=O)[C@@H]3CCCN3C(=O)[C@H](CCCNC(=N)N)NC(=O)[C@H](CCC(=O)O)NC(=O)[C@H](CO)NC(=O)[C@H](CC(=O)O)NC(=O)[C@@H]3CSSC[C@H](NC(=O)[C@H](C(C)C)NC(=O)[C@H](CC(C)C)NC(=O)CNC(=O)[C@H](CCC(=O)O)NC(=O)[C@H](CSSC[C@H](NC(=O)[C@@H](N)Cc4ccc(O)cc4)C(=O)N[C@@H](CCC(N)=O)C(=O)N[C@@H](CCCCNC(=O)CCC4=[N+]5C(=Cc6c(C)cc(C)n6[B-]5(F)F)C=C4)C(=O)N[C@@H](Cc4ccccc4)C(=O)N[C@@H](CC(C)C)C(=O)N[C@@H](Cc4c[nH]c5ccccc45)C(=O)N[C@@H]([C@@H](C)O)C(=O)N3)NC2=O)C(=O)N[C@@H](CCCNC(=N)N)C(=O)N[C@@H](CC(C)C)C(=O)N[C@@H](Cc2c[nH]c3ccccc23)C(=O)N1)C(=O)N[C@@H](CC(N)=O)C(N)=O [Hsp1a-FL]
- average percentage of oxygen saturation (SpO2) (15 seconds post injection): 90.3 (SD=6.0) %
- average percentage of oxygen saturation (SpO2) (5 minutes post injection): 89.2 (SD=7.4) %
- average percentage of oxygen saturation (SpO2) (15 minutes post injection): 90.3 (SD=5.6) %
